Results: patent EP1077966B1, “BIPHENYL SULFONYL ARYL CARBOXYLIC ACIDS USEFUL IN THE TREATMENT OF INSULIN RESISTANCE AND HYPERGLYCEMIA” (Wyeth, priority 1998, dated 1999)

Amino acid sequences for entries named in this document (tags omitted). A change or cut given only in a name is not applied to a line headed by its entry.
UniProt P18031: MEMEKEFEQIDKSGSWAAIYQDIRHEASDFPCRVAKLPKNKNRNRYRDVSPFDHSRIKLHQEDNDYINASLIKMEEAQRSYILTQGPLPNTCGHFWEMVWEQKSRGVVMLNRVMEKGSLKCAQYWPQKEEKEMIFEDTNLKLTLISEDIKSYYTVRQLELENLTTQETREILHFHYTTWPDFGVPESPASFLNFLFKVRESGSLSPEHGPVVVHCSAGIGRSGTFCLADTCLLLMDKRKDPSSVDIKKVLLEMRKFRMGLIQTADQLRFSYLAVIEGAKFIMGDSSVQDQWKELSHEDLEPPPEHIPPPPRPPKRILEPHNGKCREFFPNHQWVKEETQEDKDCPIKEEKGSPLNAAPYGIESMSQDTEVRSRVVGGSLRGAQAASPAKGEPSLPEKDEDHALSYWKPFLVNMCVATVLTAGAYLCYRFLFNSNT

Target: Human recombinant PTP1B (Homo sapiens, UniProt P18031)
Assay: Inhibition of tri-phosphorylated insulin receptor dodecaphosphopeptide dephosphorylation by hPTP1B (malachite green-ammonium molybdate phosphate detection)
Format: biochemical
Details: substrate phosphotyrosyl dodecapeptide TRDIYETDYYRK (insulin receptor 1142-1153), 37°C, 30 min, pH 7.4

With O=[As]c1ccccc1 (stereo not shown) the IC50 was 39.7 µM.
